Anti-infective test results gathered from many reports (values: NIAID ChemDB through PubChem).

Shared fields: growth or infection tests; species: Mycobacterium tuberculosis

Inhibition is in % at the dose shown (toxicity tests: loss of growth or viability).

structure	strain or isolate	changes	cell line	method	measure	dose	value
Cc1ccccc1CSc1ccccn1	H37Rv	-	-	-	inhibition	6.25 µg/mL	0%
Cc1ccc2oc3c(=O)c4ccccc4c(=O)c=3oc2c1	H37Rv	-	-	BACTEC	MIC bound	-	>12.5 µg/mL
C[C@@H]1CN(c2c(F)c(N)c3c(=O)c(C(=O)O)cn(C4CC4)c3c2F)C[C@H](C)N1	Isolate 10	-	-	-	MIC	-	4 µg/mL
COC(=O)[C@@H]1c2cc3c(c(O)c2[C@@H](OC)C[C@@]1(C)O)C(=O)c1c(O)cc2c(c1C3=O)O[C@@H]1O[C@@]2(C)[C@H](O)[C@@H](N(C)C)[C@@H]1O	H37Rv	-	-	BACTEC	MIC	-	6.25 µg/mL
CN(C(=O)CCC(=O)O)c1ccc(Cl)c2ccccc12	H37Rv	-	-	-	MIC	-	50 µg/mL
O=C(Nc1cc2c(=O)[nH]c3ccccc3c2oc1=O)c1cnccn1	H37Rv	-	-	BACTEC	inhibition	6.25 µg/mL	31%
CN[C@@H]1[C@H](O[C@H]2[C@H](O[C@H]3[C@H](O)[C@@H](O)[C@H](N=C(N)N)[C@@H](O)[C@@H]3N=C(N)N)O[C@@H](C)[C@]2(O)C=O)O[C@@H](CO)[C@H](O)[C@H]1O	41494	-	-	-	MIC	-	<2 µg/mL
NNC(=O)c1ccncc1	Clinical isolate 10367	-	-	broth dilution	MIC	-	≤0.2 µM
CCCCSc1nc(Cl)nc2nc[nH]c12	H37Ra	-	-	-	MIC	-	>12.8 µg/mL
O=C1CC(c2ccc(O)cc2)Oc2ccccc21	H37Rv	-	-	-	EC50	-	>12.5 µg/mL
COc1ccc(CCc2cc(OC)c3ccccc3n2)cc1OC	MT3	-	-	-	MIC	-	155 µg/mL
Oc1ccc(CCNCCNCc2ccco2)cc1	-	-	-	-	MIC	-	50 µM
O=C(N/N=C/c1ccccc1O)c1ccccc1Cl	-	-	-	-	MIC	-	>200 µg/mL
CCOC(=O)C(=O)C1C(=O)C(=O)C(CCc2cccc3ccccc23)C1=O	H37Rv	-	-	-	MIC	-	50 µg/mL
CCOC(=O)/C(=C\c1c(C)[nH]c2ccccc12)P(=O)(OCC)OCC	H37Rv	-	-	BACTEC	MIC bound	-	>12.5 µg/mL
COc1cc(OC)cc(C(=O)NN)c1	H37Rv	-	-	-	MIC	-	>100 µg/mL
CCCCCCCCCCCNCCNCC(O)c1ccccc1	-	-	-	-	MIC	-	25 µM
C=C(NC(=O)c1csc(-c2nc3c(cc2O)-c2nc(cs2)C(=O)N[C@@H]([C@@H](C)O)C(=O)N/C(=C(\C)OC)c2nc(cs2)C(=O)N[C@@H]2c4nc(cs4)C(=O)N[C@@H](COC(=O)c4c5c6c(cccc6n4O)COC(=O)[C@@H](O[C@H]4C[C@](C)(O)[C@H](N(C)C)[C@H](C)O4)[C@H]2OC5)c2nc-3cs2)n1)C(N)=O	Clinical isolate 565	Rifampicin- and isoniazid-resistant	-	broth dilution	MIC	-	≤25 µM
NCC[C@H](O)C(=O)N[C@@H]1C[C@H](N)[C@@H](O[C@H]2O[C@H](CN)[C@@H](O)[C@H](O)[C@H]2O)[C@H](O)[C@H]1O[C@H]1O[C@H](CO)[C@@H](O)[C@H](N)[C@H]1O	2R	-	-	-	MIC	-	2.5 µg/mL
Nc1ncccc1/C=C/C(=O)c1ccc2c(c1)-c1ccccc1C2	H37Rv	-	-	-	EC50	-	<12.5 µg/mL
O=C1C2=Nc3ccccc3C(O)N2c2ccccc21	H37Rv	-	-	resazurin	MIC	-	6.25 µg/mL
Cc1ccc(C)c(Sc2ncccn2)c1	H37Ra	-	-	-	MIC	-	>12.8 µg/mL
C[C@H]1COc2c(N3CCN(C)CC3)c(F)cc3c(=O)c(C(=O)O)cn1c23	Isolate 3	-	-	-	MIC	-	2 µg/mL
CO[C@H]1/C=C/O[C@@]2(C)Oc3c(C)c(O)c4c(O)c(c(/C=N/N5CCN(C)CC5)c(O)c4c3C2=O)NC(=O)/C(C)=C\C=C\[C@H](C)[C@H](O)[C@@H](C)[C@@H](O)[C@@H](C)[C@H](OC(C)=O)[C@@H]1C	41494	-	-	-	MIC	-	≥2 µg/mL
COc1ccc(C(=O)NN)cc1	-	-	-	-	MIC	-	40 µg/mL
CCCCC(=O)Nc1ccc(S(=O)(=O)O)c(N=NC2C(=O)N(c3ccccc3)N=C2C)c1	H37Rv	-	-	BACTEC	MIC	-	≥12.8 µg/mL
O=C(O)CCSc1nc2ccccc2s1	H37Rv	-	-	-	MIC	-	>100 µg/mL
CO[C@H]1/C=C/O[C@@]2(C)Oc3c(C)c(O)c4c(O)c(c5c(c4c3C2=O)NC2(CCN(CC(C)C)CC2)N=5)=NC(=O)/C(C)=C\C=C\[C@H](C)[C@H](O)[C@@H](C)[C@@H](O)[C@@H](C)[C@H](OC(C)=O)[C@@H]1C	Strain 69	-	-	-	MIC	-	0.03 µg/mL
Fc1cccc(CCNCCNCCCCc2ccccc2)c1	-	-	-	-	MIC	-	50 µM
O=C(N/N=C/c1cccc2ccccc12)c1ccc(O)cc1	H37Rv	-	-	BACTEC	MIC bound	-	>12.5 µg/mL
CC(=O)C1C(=O)C(=O)N(c2ccccc2)C1=O	H37Rv	-	-	-	MIC	-	>100 µg/mL
NC(=O)C1=C[C@H]2[C@H]3C=C[C@@]2(O)C(=O)O[C@@H]3O1	EMB-R	-	-	-	MIC	-	12.5 µg/mL
O=C(O)C(C(=O)O)C(=O)c1ccccc1	H37Rv	-	-	-	MIC	-	50 µg/mL
CCCCC(CC)CN1CN(CC(CC)CCCC)CC(C)(NCCN[C@H]2C[C@@H]2c2ccccc2)C1	-	-	-	-	MIC	-	50 µM
COc1ccccc1CSc1ncnc2nc[nH]c12	H37Rv	-	-	-	MIC90	-	>6.25 µg/mL
Nc1ncccc1/C=C/C(=O)c1cc2ccccc2cc1O	-	-	-	-	EC50	-	>12.5 µg/mL
Nc1ccc(N=Nc2ccc(S(N)(=O)=O)cc2)c(O)c1	H37Rv	-	-	-	MIC	-	50 µg/mL
Cc1nc2c(n1CCN1CCOCC1)C(=O)c1nc(C)n(CCN3CCOCC3)c1C2=O.Cl.Cl	H37Rv	-	-	BACTEC	MIC bound	-	>12.5 µg/mL
COc1ccc(OC)c(CCNCCNC23CC4CC(CC2C4)C3)c1	-	-	-	-	MIC	-	25 µM
NNC(=O)c1ccncc1	Isolate 17	-	-	-	MIC	-	1 µg/mL
O=c1ccc(=O)[nH][nH]1	-	-	-	-	MIC	-	>200 µg/mL
O=C1C=C(N2CC2)c2ccccc2C1=O	H37Rv	-	-	resazurin	MIC bound	-	>6.25 µg/mL
ClC(Cl)(Cl)C(c1cccs1)c1cccs1	H37Rv	-	-	-	MIC	-	>100 µg/mL
CC1CCCN(C(=S)S)C1.CC1CCCNC1	H37Rv	-	-	BACTEC	inhibition	12.5 µg/mL	99%
O=C1c2ccccc2C(=O)c2c1c(O)c1ccccc1c2O	H37Rv	-	-	-	MIC	-	>100 µg/mL
CN[C@@H]1[C@H](O[C@H]2[C@H](O[C@H]3[C@H](O)[C@@H](O)[C@H](N=C(N)N)[C@@H](O)[C@@H]3N=C(N)N)O[C@@H](C)[C@]2(O)C=O)O[C@@H](CO)[C@H](O)[C@H]1O	TN718 (AY)	-	-	-	MIC	-	>2 µg/mL
COc1ccc(C2CC(=O)c3ccc(OC)cc3O2)cc1	H37Rv	-	-	-	EC50	-	>12.5 µg/mL
CO[C@H]1/C=C/O[C@@]2(C)Oc3c(C)c(O)c4c(O)c(c(/C=N/N5CCN(C)CC5)c(O)c4c3C2=O)NC(=O)/C(C)=C\C=C\[C@H](C)[C@H](O)[C@@H](C)[C@@H](O)[C@@H](C)[C@H](OC(C)=O)[C@@H]1C	Clinical isolate 15552	Rifampicin- and isoniazid-resistant	-	broth dilution	MIC	-	>10 µM
O=C1CC(c2ccc(O)c(O)c2)Oc2c1c(O)cc(O[C@@H]1O[C@H](CO)[C@@H](O)[C@H](O)[C@H]1O)c2C1C(=O)c2c(O)cc(O)cc2OC1c1ccc(O)cc1	H37Rv	-	-	-	EC50	-	>12.5 µg/mL
Cc1nc2ccccc2c(N)c1-c1cc(C)c2c(C)nc3ccccc3c2n1	H37Rv	-	-	BACTEC	inhibition	12.5 µg/mL	-18%
O=C(O)c1cc(-c2ccc(O)cc2)nc2ccc(S(=O)(=O)[O-])cc12.[Na+]	H37Rv	-	-	-	MIC	-	>100 µg/mL
CO/C(C)=C1/NC(=O)[C@H]([C@@H](C)O)NC(=O)c2csc(n2)-c2cc(O)c(-c3nc(C(=O)NCCCN4CCOCC4)cs3)nc2-c2csc(n2)[C@@H]2COC(=O)c3c4c5c(cccc5n3O)COC(=O)[C@@H](O[C@H]3C[C@](C)(O)[C@H](N(C)C)[C@H](C)O3)[C@@H](OC4)[C@H](NC(=O)c3csc1n3)c1nc(cs1)C(=O)N2	Clinical isolate 15552	Rifampicin- and isoniazid-resistant	-	broth dilution	MIC	-	≤2.5 µM
C1CCCC(NCCNC2CCCCCCC2)CCC1	-	-	-	-	MIC	-	12.5 µM
CO/C(C)=C1/NC(=O)[C@H]([C@@H](C)O)NC(=O)c2csc(n2)-c2cc(O)c(-c3nc(C(=O)NCc4cnn(C)c4)cs3)nc2-c2csc(n2)[C@@H]2COC(=O)c3c4c5c(cccc5n3O)COC(=O)[C@@H](O[C@H]3C[C@](C)(O)[C@H](N(C)C)[C@H](C)O3)[C@@H](OC4)[C@H](NC(=O)c3csc1n3)c1nc(cs1)C(=O)N2	Clinical isolate 565	Multidrug-resistant	-	broth dilution	MIC	-	≤10 µM
CC12CCC(O)CC1=CCC1C2CCC2(C)C(NC(=O)C3CCCN3C(=O)OCc3ccccc3)CCC12	H37Rv	-	-	BACTEC	MIC bound	-	>12.5 µg/mL
O=C(CC(=O)c1ccccc1)Nc1cccc(NC(=O)CC(=O)c2ccccc2)c1	H37Rv	-	-	-	MIC	-	>100 µg/mL
CC(C)c1ccc2c(c1)CC[C@H]1[C@](C)(CNCCN[C@H]3C[C@H]4C[C@@H]([C@@H]3C)C4(C)C)CCC[C@]21C	-	-	-	-	MIC	-	25 µM
NC(=O)NC(=O)C1CCN(S(=O)(=O)c2ccccc2)CC1	H37Rv	-	-	BACTEC	MIC bound	-	>12.5 µg/mL
COc1ccc(CSc2ccncc2)cc1	H37Rv	-	-	-	MIC90	-	>6.25 µg/mL
Cc1ccc(N(C)S(=O)(=O)c2ccc(N)c(Cl)c2)cc1	H37Rv	-	-	-	MIC	-	>100 µg/mL
COc1cccc(CSc2ncccn2)c1	H37Rv	-	-	-	MIC90	-	>6.25 µg/mL
CCN(CC)c1cc(C)nc(NCCCN2CCCCC2)n1	H37Rv	-	-	-	MIC	-	>100 µg/mL
C[C@H]1COc2c(N3CCN(C)CC3)c(F)cc3c(=O)c(C(=O)O)cn1c23	3R	-	-	-	MIC	-	0.5 µg/mL
CN1CC(=O)N2CCCCC2C(c2ccccc2)C1	H37Rv	-	-	BACTEC	inhibition	12.5 µg/mL	-5%
O=C(NNC(=O)C(Cl)Cl)c1ccc([N+](=O)[O-])cc1	-	-	-	-	MIC	-	>200 µg/mL
Nc1ccc2nc(-c3ccccc3)c(-c3ccccc3)nc2c1	H37Rv	-	-	-	MIC	-	100 µg/mL
Cc1ccc(CSc2ncnc3nc[nH]c23)cc1	H37Ra	-	-	-	MIC	-	>12.8 µg/mL
O=C(CN1CCOCC1)N1c2ccccc2Sc2cc3ccccc3cc21	H37Rv	-	-	BACTEC	MIC bound	-	>12.5 µg/mL
COc1ccc(N)c(S(=O)(=O)O)c1	H37Rv	-	-	-	MIC	-	>100 µg/mL
O=C1CC(c2ccccc2)Oc2cc(I)ccc21	H37Rv	-	-	-	EC50	-	>12.5 µg/mL
O=C1c2cccc(NCCO)c2C(=O)c2cccc(NCCO)c21	H37Rv	-	-	-	MIC	-	>100 µg/mL
CC(=O)Nc1ccc(C(=O)NN=C(C)C)cc1	-	-	-	-	MIC	-	>40 µg/mL
Cc1ccccc1N	H37Rv	-	-	-	MIC	-	>100 µg/mL
CN1c2ccccc2CCC1CCc1ccc2c(c1)OCO2	MT2	-	-	-	MIC	-	169 µg/mL
C[C@@H]1CN(c2c(F)c(N)c3c(=O)c(C(=O)O)cn(C4CC4)c3c2F)C[C@H](C)N1	890902	-	-	-	MIC	-	0.1 µg/mL
Cc1ccc2nc(Nc3ccc(Cl)cc3)cc(C(O)C3CCCCN3)c2c1	H37Rv	-	VERO	-	MIC	-	3.13 µg/mL
C=C(C)C(CCC(=O)O)(CCC(=O)O)C(=O)O	H37Rv	-	-	-	MIC	-	>100 µg/mL
CC(C)=NNC(=O)c1cccnc1	H37Rv	-	-	BACTEC	MIC	-	≥12.5 µg/mL
Clc1ccccc1CCNCCNCCNc1ccccc1	-	-	-	-	MIC	-	50 µM
CC(C)(C)c1ccc2c(c1)OCCO2	H37Rv	-	-	-	MIC	-	>100 µg/mL
CSc1nc(Nc2ccccc2Cl)cc(C(=O)O)n1	H37Rv	-	-	BACTEC	MIC bound	-	>12.5 µg/mL
COc1ccc(CSc2ccccn2)cc1	H37Ra	-	-	-	MIC	-	>12.8 µg/mL
COc1cc(C(=O)NC(=S)Nc2ccc(C)c(F)c2)cc(OC)c1OC	H37Rv	-	-	BACTEC	MIC bound	-	>12.5 µg/mL
CCN(CC)CCCC(C)N=Cc1ccc(N(C)C)cc1	H37Rv	-	-	-	MIC	-	>100 µg/mL

5 of the rows above, restated:

structure	strain or isolate	changes	cell line	method	measure	dose	value
Nc1ccc2nc(-c3ccccc3)c(-c3ccccc3)nc2c1	H37Rv	-	-	-	MIC	-	100 µg/mL
O=C1CC(c2ccc(O)cc2)Oc2ccccc21	H37Rv	-	-	-	EC50	-	>12.5 µg/mL
CC12CCC(O)CC1=CCC1C2CCC2(C)C(NC(=O)C3CCCN3C(=O)OCc3ccccc3)CCC12	H37Rv	-	-	BACTEC	MIC bound	-	>12.5 µg/mL
Clc1ccccc1CCNCCNCCNc1ccccc1	-	-	-	-	MIC	-	50 µM
C1CCCC(NCCNC2CCCCCCC2)CCC1	-	-	-	-	MIC	-	12.5 µM

Blank or dashed fields: not listed here. MIC bound comes from a single tested concentration. Rows are shuffled and stem from different studies. MIC50, MIC90 and the like: level of inhibition, or share of isolates inhibited. ECn is the concentration giving n% inhibition of infection, replication or growth.